Test results reported in US20040018487A1 (published 2004).

Target: HPV 16 E6 C-terminal PL peptide (TQL), biotinylated (HPV 16)
Assay: G assay, HPV16 E6 PL peptide titrated against a constant amount of GST-PDZ

B1: GST-PSD95 PDZ domain 2 (other)
chain: MSPILGYWKIKGLVQPTRLLLEYLEEKYEEHLYERDEGDKWRNKKFELGLEFPNLPYYIDGDVKLTQSMAIIRYIADKHNMLGGCPKERAEISMLEGAVLDIRYGVSRIAYSKDFETLKVDFLSKLPEMLKMFEDRLCHKTYLNGDHVTHPDFMLYDALDVVLYMDPMCLDAFPKLVCFKKRIEAIPQIDKYLKSSKYIAWPLQGWQATFGGGDHPPKSDLIEGREIKLIKGPKGLGFSIAGGVGNQHIPGDNSIYVTKIIEGGAAHKDGRLQIGDKILAVNSVGLEDVMHEDAVAALKNTYDVVYLKVAKP
notes: also called PSD 95 (2); PSD 95 (PDZ #2)
EC50: 6.8 µM
